Reference: paper PMC6429459 (International Journal of Molecular Sciences, 2019)
* marks the point of attachment. AMC = Cc1cc(=O)oc2cc(N*)ccc12; Cbz = O=C(OCc1ccccc1)*

Experiment: general procedure: Fmoc solid-phase peptide synthesis; Wang-polystyrene resin loaded with Fmoc-Leu-OH or Fmoc-Ala-OH (0.6 mmol/g); 2-chlorotrityl chloride polystyrene resin (1); HBTU/DIEA (manual); HATU/DIEA (automated)
Settings: coupling step

## Cbz-EVNL-{AMC} (SMILES Cc1cc(=O)oc2cc(NC(=O)[C@H](CC(C)C)NC(=O)[C@H](CC(N)=O)NC(=O)[C@@H](NC(=O)[C@H](CCC(=O)O)NC(=O)OCc3ccccc3)C(C)C)ccc12)
  step yield: 15.2%
